Where a chain is given by its changes, count along the chain named.
B1: mAb11006 (antibody)
heavy: EVQLVESGGGLVQPGGSLRLSCAASGFIVSRNYMSWVRQAPGKGLEWVSVIYSGGSTFYADSVKGRFTISRHNSKNTLYLQMNSLKAEDTAVYYCARELRGYFDYWGQGTLVTVSSASTKGPSVFPLAPSSKSTSGGTAALGCLVKDYFPEPVTVSWNSGALTSGVHTFPAVLQSSGLYSLSSVVTVPSSSLGTQTYICNVNHKPSNTKVDKKV[human IgG1 Fc left out here]
light: DIQLTQSPSFLSASVGDRVTITCWASQGISSYLAWYQQKPGKAPKLLIYAASTLQSGVPSRFSGSGSGTEFTLTISSLQPEDFATYYCQLLNSYPYTFGQGTKLEIKRTVAAPSVFIFPPSDEQLKSGTASVVCLLNNFYPREAKVQWKVDNALQSGNSQESVTEQDSKDSTYSLSSTLTLSKADYEKHKVYACEVTHQGLSSPVTKSFNRGEC
B2: mAb11008 (antibody)
heavy: EVQLVESGGGLVQPGGSLRLSCAASGFTVSSNYMTWVRQAPGKGLEWVSVIYSGGSTFYADSVKGRFTISRHNSENTLYLQMNSLRAEDTAVYYCARDLAAAGTDYWGQGALVTVSSASTKGPSVFPLAPSSKSTSGGTAALGCLVKDYFPEPVTVSWNSGALTSGVHTFPAVLQSSGLYSLSSVVTVPSSSLGTQTYICNVNHKPSNTKVDKKV[human IgG1 Fc left out here]
light: B1 light with E81D, L90H, P95L
B3: mAb10998 (antibody)
heavy: EVQLVESGGGLVHPGGSLRLSCAASGLTVSSNYMSWVRQAPGKGLEWVSVIYSGGSTYYADSVKGRFTISRHNSKNTLFLQMNSLRAEDTAVYYCARDRPITGTTLDVWGQGTTVTVSSASTKGPSVFPLAPSSKSTSGGTAALGCLVKDYFPEPVTVSWNSGALTSGVHTFPAVLQSSGLYSLSSVVTVPSSSLGTQTYICNVNHKPSNTKVDKKV[human IgG1 Fc left out here]
light: DIQMTQSPSSLFASVGDRVTITCRASQSISSYLNWYQQKPGKAPKLLIYAASSLQSGVPSRFSGSGSGTDFTLTISSLQPEDFAFYYCQQTYSTPPITFGQGTRLEIKRTVAAPSVFIFPPSDEQLKSGTASVVCLLNNFYPREAKVQWKVDNALQSGNSQESVTEQDSKDSTYSLSSTLTLSKADYEKHKVYACEVTHQGLSSPVTKSFNRGEC
B4: mAb10920 (antibody)
heavy: QVQLVESGGGVVQPGRSLRLSCAASGFTFSYYGMHWVRQAPGKGLEWVAVIWYDGSNKFYADSVKGRFTISRDNSKNTLYLQMNSLRAEDTAVYYCAAARPGYYYGMDVWGQGTTVTVSSASTKGPSVFPLAPSSKSTSGGTAALGCLVKDYFPEPVTVSWNSGALTSGVHTFPAVLQSSGLYSLSSVVTVPSSSLGTQTYICNVNHKPSNTKVDKKV[human IgG1 Fc left out here]
light: DIQMTQSPSSLSASVGDRVTITCRASQGISNYLAWFQQKPGKAPNSLIYAASSLQRGVPSKFSGSGSGTDFTLTISSLQPEDFATYYCQQYNSYPRTFGQGTKVEIKRTVAAPSVFIFPPSDEQLKSGTASVVCLLNNFYPREAKVQWKVDNALQSGNSQESVTEQDSKDSTYSLSSTLTLSKADYEKHKVYACEVTHQGLSSPVTKSFNRGEC
B5: mAb10921 (antibody)
heavy: EVQLVESGGGLVQPGGSLRLSCAASGITVSSNYMSWVRQAPGKGLEWVSVIYSGGSTFYADSVKGRFTISRHNSKNTLYLQMNSLRAEDTAVYYCARERNFDAFDIWGQGTMVTVSSASTKGPSVFPLAPSSKSTSGGTAALGCLVKDYFPEPVTVSWNSGALTSGVHTFPAVLQSSGLYSLSSVVTVPSSSLGTQTYICNVNHKPSNTKVDKKV[human IgG1 Fc left out here]
light: DIQMTQSPSSVSASVGDRVTITCRASQGISSWLAWYQQKPGKAPKLLIYAASSLQSGVPSRFSGSGSGTDFTLTISSLQPEDFATYYCQQANSFPLFTFGPGTKVDIKRTVAAPSVFIFPPSDEQLKSGTASVVCLLNNFYPREAKVQWKVDNALQSGNSQESVTEQDSKDSTYSLSSTLTLSKADYEKHKVYACEVTHQGLSSPVTKSFNRGEC
B6: mAb10938 (antibody)
heavy: EVQLVESGGGLVQPGGSLRLSCAVSGFTVSSNYMSWVRQAPGKGLEWVSLIYSGGSTFYADSVKGRFTISRHNSKNTLYLQMNSLRAEDTAVYYCAREGGYSYDYNYWGQGTLVTVSSASTKGPSVFPLAPSSKSTSGGTAALGCLVKDYFPEPVTVSWNSGALTSGVHTFPAVLQSSGLYSLSSVVTVPSSSLGTQTYICNVNHKPSNTKVDKKV[human IgG1 Fc left out here]
light: DIQMTQSPSSLSASVGDRVTITCQASQDIRNYLNWYQQKPGKAPKLLIYDASNLETGVPSRFSGIGSGTDFTFTISSLQPEDIATYYCQQYDNLPITFGQGTRLEIKRTVAAPSVFIFPPSDEQLKSGTASVVCLLNNFYPREAKVQWKVDNALQSGNSQESVTEQDSKDSTYSLSSTLTLSKADYEKHKVYACEVTHQGLSSPVTKSFNRGEC

Target: SARS-CoV-2 RBD-hFc (receptor binding domain of the SARS-CoV-2 spike protein, amino acids Arg319 to P (SARS-CoV-2))
Assay: not given
Conditions: remark: other sources report otherwise

| Binder | SARS-CoV-2 RBD-hFc Binding to His presented ACE2 (Abs 450 nm) |
| --- | --- |
| B1 | 0.236 |
| B2 | 0.213 |
| B3 | 0.185 |

Target: T1, SARS-CoV-2 RBD-hFc (receptor binding domain of the SARS-CoV-2 Spike protein, amino acids Arg319-Phe5 (SARS-CoV-2))
Assay: blocking ELISA, RBD-hFc to hACE2-His, highest antibody concentration, run 1
Conditions: remark: other sources report otherwise

| Binder | % Blocking [%] |
| --- | --- |
| B4 | 95 |
| B5 | 99 |
| B6 | 99 |

Target: T1, SARS-CoV-2 RBD-hFc (receptor binding …)
Assay: blocking ELISA, RBD-hFc to hACE2-His, run 1
Conditions: remark: other sources report otherwise

| Binder | IC50 [nM] |
| --- | --- |
| B4 | 0.338 |
| B5 | 0.433 |
| B6 | 0.275 |

Target: T1, SARS-CoV-2 RBD-hFc (receptor binding …)
Assay: blocking ELISA, RBD-hFc to hACE2-His, run 3
Conditions: remark: other sources report otherwise

| Binder | IC50 [nM] |
| --- | --- |
| B2 | 1.49 |
| B4 | 0.139 |
| B5 | 0.507 |

Target: T1, SARS-CoV-2 RBD-hFc (receptor binding …)
Assay: blocking ELISA, RBD-hFc to hACE2-His, highest antibody concentration, run 3
Conditions: remark: other sources report otherwise

| Binder | % Blocking [%] |
| --- | --- |
| B1 | 85 |
| B2 | 93 |
| B3 | 55 |
| B4 | 87 |
| B5 | 94 |

From patent US20220356230A1
